Compound potency records, mixed from different reports. Data source: NIAID ChemDB in PubChem.

All rows: cytotoxicity tests; cells: MT-4; endpoint: CC50

Neighbouring rows are from separate reports.

smiles | method | result
N#Cc1cnn2c1n[n+]([O-])c1cc([N+](=O)[O-])ccc12 |  | 1 µM
Cc1ccccc1N1CCN(CCCN2C(=O)C3C4CCC(C(=O)C4)C3C2=O)CC1 | MTT | >100 µM
COc1cc2nc(S(=O)CC(=O)Nc3cccc(C#N)c3)nc(Nc3c(Cl)cc(/C=C/C#N)cc3Cl)c2cc1OC | MTT | >70.3 µM
Cc1cc(C)cc(S(=O)(=O)c2c(C(=O)NC3CN(Cc4ccccc4C#N)C3)[nH]c3ccc(Cl)cc23)c1 | MTT | >235 µM
NC(=O)c1cccn1S(=O)(=O)c1ccccc1[N+](=O)[O-] | MTT | >200 µM
COc1ccc(/C=C/C(=O)c2c(O)c3c(C)ccc(C(C)C)c3oc2=O)cc1OC |  | 62 µg/mL
COc1cc2nc(S(=O)CC(=O)Nc3ccccc3C#N)nc(Nc3c(Cl)cc(/C=C/C#N)cc3Cl)c2cc1OC | MTT | >206 µM
CC(C)(C)NCC(O)CN1C(=O)C2C3CCC(C(=O)C3)C2C1=O | MTT | >100 µM
C#CCOC(=O)c1cccn1S(=O)(=O)c1cc(Cl)ccc1[N+](=O)[O-] | MTT | 4.9 µM
O=C1CC2CCC1C1C(=O)N(CCCN3CCN(c4ccccc4O)CC3)C(=O)C21 | MTT | >100 µM
Cc1cc(C)cc(S(=O)(=O)c2c(C(=O)NC3CN(CC(N)=O)C3)[nH]c3ccc(Cl)cc23)c1 | MTT | 25.52 µM
COc1cc2nc(S(=O)CC(=O)Nc3ccc(C#N)cc3)nc(Nc3c(Cl)cc(/C=C/C#N)cc3Cl)c2cc1OC | MTT | >188 µM
Cc1cc(C)cc(S(=O)(=O)c2c(C(=O)NC3CN(Cc4cccnc4)C3)[nH]c3ccc(Cl)cc23)c1 | MTT | 36.03 µM
O=[N+]([O-])c1ccc2c(c1)nnc1c([N+](=O)[O-])cnn12 |  | 1.4 µM
Cc1ccc(C(C)C)c2oc(=O)c(C(=O)/C=C/c3ccccc3[N+](=O)[O-])c(O)c12 |  | 2.81 µg/mL
O=C(O[C@H]1O[C@@H]2COC(=O)c3cc(O)c(O)c(O)c3-c3c(cc(O)c(O)c3O)C(=O)O[C@H]2[C@@H]2OC(=O)c3cc(O)c(O)c(O)c3-c3c(cc(O)c(O)c3O)C(=O)O[C@@H]12)c1cc(O)c(O)c(Oc2c(C(=O)O[C@H]3O[C@@H]4COC(=O)c5cc(O)c(O)c(O)c5-c5c(cc(O)c(O)c5O)C(=O)O[C@H]4[C@@H]4OC(=O)c5cc(O)c(O)c(O)c5-c5c(cc(O)c(O)c5O)C(=O)O[C@@H]34)cc(O)c(O)c2O)c1 |  | 41.3 µg/mL
CCOC(=O)c1ccn(S(=O)(=O)c2cc(Cl)ccc2N)c1 | MTT | 44 µM
CCOC(=O)c1cnn2c1n[n+]([O-])c1cc([N+](=O)[O-])ccc12 |  | 1.3 µM
Oc1cc(O)c2c(c1)O[C@H](c1cc(O)c(O)c(O)c1)[C@H](O)C2 |  | 14.6 µg/mL
O=[N+]([O-])c1cnn2c1nnc1ccc(Cl)cc12 |  | 1.7 µM
COc1ccc(/C=C/C(=O)c2c(O)c3cc(Cl)c(C)cc3oc2=O)cc1OC |  | 59.1 µg/mL
O=C1O[C@@H]2O[C@@H]3COC(=O)c4cc(O)c(O)c(O)c4-c4c(cc(O)c(O)c4O)C(=O)O[C@H]3[C@H](OC(=O)c3cc(O)c(O)c(O)c3)[C@H]2OC(=O)c2cc(Oc3c(C(=O)O[C@H]4[C@H](OC(=O)c5cc(O)c(O)c(O)c5)O[C@H](CO)[C@@H](O)[C@@H]4OC(=O)c4cc(O)c(O)c(O)c4)cc(O)c(O)c3O)c(O)c(O)c2Oc2cc1cc(O)c2O |  | 59 µg/mL
Cc1cc(C)cc(S(=O)(=O)c2c(C(=O)N[C@H]3CCN(Cc4ccccc4C#N)C3)[nH]c3ccc(Cl)cc23)c1 | MTT | >229 µM
O=CC(OC(=O)c1cc(O)c(O)c(O)c1Oc1cc2c(c(O)c1O)-c1c(cc(O)c(O)c1O)C(=O)OC(C(OC(=O)c1cc(O)c(O)c(O)c1)C(C=O)OC(=O)c1cc(O)c(O)c(O)c1)C(O)COC2=O)C(OC(=O)c1cc(O)c(O)c(O)c1)C1OC(=O)c2cc(O)c(O)c(O)c2-c2c(cc(O)c(O)c2O)C(=O)OCC1O |  | 34.6 µg/mL
COc1cc2nc(S(=O)CC(=O)Nc3ccccc3F)nc(Nc3c(Cl)cc(/C=C/C#N)cc3Cl)c2cc1OC | MTT | >208 µM
Cc1cc(C)cc(S(=O)(=O)c2c(C(=O)NS(=O)(=O)c3ccc(F)cc3)[nH]c3ccc(Cl)cc23)c1 | MTT | 121 µM
O=C1O[C@@H]2O[C@@H]3COC(=O)c4cc(O)c(O)c(O)c4-c4c(cc(O)c(O)c4O)C(=O)O[C@H]3[C@H](OC(=O)c3cc(O)c(O)c(O)c3)[C@H]2OC(=O)c2cc(O)c(O)c(O)c2Oc2cc(cc(O)c2O)C(=O)O[C@@H]2O[C@@H]3COC(=O)c4cc(O)c(O)c(O)c4-c4c(cc(O)c(O)c4O)C(=O)O[C@H]3[C@H](OC(=O)c3cc(O)c(O)c(O)c3)[C@H]2OC(=O)c2cc(O)c(O)c(O)c2Oc2c(O)cc1cc2O |  | 39.9 µg/mL
CCCCOC(=O)c1cccn1S(=O)(=O)c1cc(Cl)ccc1N | MTT | >200 µM
Cc1ccc(C(C)C)c2oc(=O)c(C(=O)/C=C/c3ccccc3)c(O)c12 |  | 13.2 µg/mL
N#Cc1cccn1S(=O)(=O)c1cc(Cl)ccc1[N+](=O)[O-] | MTT | 1.4 µM
O=C1CC2CCC1C1C(=O)N(CCCN3CCN(c4ccc(F)cc4)CC3)C(=O)C21 | MTT | >100 µM
COc1cc2nc(S(=O)CC(=O)Nc3ccc(C#N)cc3)nc(Nc3c(C)cc(/C=C/C#N)cc3C)c2cc1OC | MTT | >221 µM
O=[N+]([O-])c1cnn2c1n[n+]([O-])c1ccc(Cl)cc12 |  | 5.7 µM
O=C[C@H](OC(=O)c1cc(O)c(O)c(O)c1Oc1cc2c(c(O)c1O)-c1c3cc(c(O)c1O)Oc1c(cc(O)c(O)c1O)C(=O)O[C@@H](C=O)[C@@H](OC(=O)c1cc(O)c(O)c(O)c1)[C@@H]1OC(=O)c4cc(O)c(O)c(O)c4-c4c(cc(c(O)c4O)Oc4c(cc(O)c(O)c4O)C(=O)O[C@@H](C=O)[C@@H](OC(=O)c4cc(O)c(O)c(O)c4)[C@H](OC3=O)[C@H](O)COC2=O)C(=O)OC[C@H]1O)[C@@H](OC(=O)c1cc(O)c(O)c(O)c1)[C@@H]1OC(=O)c2cc(O)c(O)c(O)c2-c2c(cc(O)c(O)c2O)C(=O)OC[C@H]1O |  | 48.2 µg/mL
COc1ccccc1NC(=O)CS(=O)c1nc(Nc2c(Cl)cc(/C=C/C#N)cc2Cl)c2cc(OC)c(OC)cc2n1 | MTT | >204 µM
O=C(Oc1ccccc1)c1cccn1S(=O)(=O)c1cc(Cl)ccc1[N+](=O)[O-] | MTT | 15.5 µM

CCn: concentration that lowers growth or viability of the cells by n%. An empty or dashed field is not shown.